Pooled drug test results. Numbers come from NIAID ChemDB, via PubChem.

Shared fields: whole-cell or culture tests

ECn is the concentration giving n% inhibition of infection, replication or growth.

SMILES	strain or isolate	cell line	changes	tested at	endpoint	agent	method	result
O=c1cc(-c2ccc(O)c(O)c2)oc2cc(O)cc(O)c12	TYPE 3	BCC-1/KMC	-	-	EC50	Adenovirus	cytopathic effect	>25 µg/mL
CC1(C)C(=O)C(C(=O)CCc2ccccc2)=C(O)C(C)(C)C1=O	Vancomycin-resistant	-	-	-	MIC	Enterococcus faecalis	-	31 µg/mL
O=c1[nH]c(=O)n([C@H]2C[C@H](O)[C@@H](CO)O2)cc1/C=C/Br	-	P3HR-1	-	10 µM	inhibition	Epstein-Barr virus	-	4%
C[C@@H](O)[C@H]1C(=O)N2C(C(=O)O)=C(S[C@H]3C[C@@H](C(=O)N4CC[C@H](NC(=O)CN=C(N)N)C4)N(C)C3)[C@H](C)[C@H]12	S10	-	-	-	MIC	Pseudomonas aeruginosa	-	1 µg/mL
Cc1cccc2c1OP(=O)(OC[C@H]1O[C@@H](n3cc(/C=C/Br)c(=O)[nH]c3=O)C[C@@H]1OC(=O)[C@H]1CCCN1)OC2	OKA	HELF	-	-	EC50	Varicella zoster virus	plaque count	0.009 µg/mL
COc1c(O)cc2oc(-c3ccc(O)cc3)cc(=O)c2c1O	-	-	-	200 µg/mL	zone	Aspergillus tubingensis	agar diffusion	0 mm
CN(C)CCNc1ncnc2c1ncn2CCOCP(=O)(O)O	-	P3HR-1	-	-	EC50	Epstein-Barr virus	hybridisation	12 µg/mL
CC(C)CC(=O)C1=C(O)C(C)(C)C(=O)C(C)(C)C1=O	Vancomycin-resistant	-	-	-	MIC	Enterococcus faecalis	-	125 µg/mL
CCC#Cc1ccc2c(c1)c(=O)c(C(=O)NCc1ccc(Cl)cc1)nn2C	-	-	-	20 µM	inhibition	Varicella zoster virus	-	90%
COc1cc2[nH]c(C)c(-c3ccc(C(F)(F)F)cc3)c(=O)c2cc1Cl	Pb1052 c11	HepG2	-	-	EC50	Plasmodium berghei	luciferase	0.00307 µM
Nc1ccc(S(=O)(=O)c2ccc(N)cc2)cc1	Isolate 842	-	-	-	MIC	Mycobacterium ulcerans	-	1 µg/mL
O=c1c(O)c(-c2ccc(O)c(O)c2)oc2cc(O)cc(O)c12	Clinical isolate 4	-	-	-	MIC50	Candida tropicalis	broth dilution	>128 µg/mL
O=P(O)(O)COCCn1cnc2c(NC3CCCCC3)ncnc21	-	P3HR-1	-	-	EC50	Epstein-Barr virus	hybridisation	4.8 µg/mL
C[C@H]1NCc2cc(-c3ccc4c(=O)c(C(=O)O)cn(C5CC5)c4c3OC(F)F)ccc21	18 strains (beta-lactamase-negative)	-	-	-	MIC50	Haemophilus influenzae	-	0.008 µg/mL
CCC[C@H](NC(=O)[C@@H]1[C@H]2CCC[C@H]2CN1C(=O)[C@@H](NC(=O)[C@@H](NC(=O)c1cnccn1)C1CCCCC1)C(C)(C)C)C(=O)C(=O)NC1CC1	1b A156T	-	-	-	EC50	Hepatitis C virus	luciferase	>10 µM
C[C@H]1[C@H](C)CC[C@]2(C(=O)O)CC[C@]3(C)C(=CC[C@@H]4[C@@]5(C)CC[C@H](O)C(C)(C)[C@@H]5CC[C@]43C)[C@H]12	TYPE 11	BCC-1/KMC	-	-	EC50	Adenovirus	cytopathic effect	>20 µg/mL
CCCCCCCCCCCC(=O)C1=C(O)C(C)(C)C(=O)C(C)(C)C1=O	Vancomycin-resistant	-	-	-	MIC	Enterococcus faecalis	-	2 µg/mL
C=CC(C)(C)C1=Cc2cc3c(cc2OC1=C)OC(C(C)(C)OC(C)=O)C3	-	P3HR-1	-	-	EC50	Epstein-Barr virus	PCR	5.43 µM
CC[C@H](C)[C@H]1NC(=O)[C@@H](NC(=O)[C@@H](CC(C)C)NC)[C@@H](C)OC(=O)[C@H](Cc2ccc(OC)cc2)N(C)C(=O)[C@@H]2CCCN2C(=O)[C@H](CC(C)C)NC(=O)[C@@H](C)C(=O)[C@H](C(C)C)OC(=O)C[C@@H]1O	TYPE 3	LLC-MK2	-	1.25 µg/mL	inhibition	Dengue virus	plaque count	21.4%
CC(C)c1cc2c(c(O)c1O)[C@@]13CCCC(C)(C)C1C[C@@H]2OC3=O	-	-	-	400 µg/mL	zone	Aspergillus tubingensis	agar diffusion	0 mm
Nc1ncnc2c1ncn2[C@@H]1O[C@H](CO)[C@H]1CO	07/1 (TK-)	HEL	-	-	EC50	Varicella zoster virus	plaque count	3.9 µM
CC1CN(c2c(F)cc3c(=O)c(C(=O)O)cn(C4CC4)c3c2F)CC(C)N1	KD1995 (GYRA D95H)	-	-	-	MIC99	Mycobacterium smegmatis	-	0.92 µg/mL
COc1cc(C(=O)O)ccc1O	TYPE 8	BCC-1/KMC	-	-	EC50	Adenovirus	cytopathic effect	>200 µg/mL
CC[C@@]1(O)C(=O)OCc2c1cc1n(c2=O)Cc2cc3cc(O)ccc3nc2-1	Mutant ΔERG6 ΔTOP1	-	-	-	MIC	Saccharomyces cerevisiae	-	>100 µg/mL
COc1c(O)c(Cl)c(Cl)c(Cl)c1Cl	288C	-	-	-	MIC	Saccharomyces cerevisiae	-	50 µg/mL
C#CC[C@@H](C(=O)N[C@H](/C=C/C(=O)OCC)C[C@@H]1CCNC1=O)n1cccc(NC(=O)c2cc(C)on2)c1=O	Serotype Hanks	H1-HELA	-	-	EC50	Rhinovirus	cytopathic effect / XTT	0.013 µM
Cc1cn([C@H]2C[C@H](F)[C@@H](CO)O2)c(=O)[nH]c1=O	1010	PBMC	-	-	EC50	HIV-2	ELISA	0.008 µM
CC(C)(O/N=C(/C(=O)N[C@@H]1C(=O)N2C(C(=O)[O-])=C(C[n+]3ccccc3)CS[C@H]12)c1csc(N)n1)C(=O)O	S10	-	-	-	MIC	Pseudomonas aeruginosa	-	1 µg/mL
CC[C@@]1(OC(=O)CN)C(=O)OCc2c1cc1n(c2=O)Cc2cc3ccccc3nc2-1	Mutant ΔERG6	-	-	-	MIC	Saccharomyces cerevisiae	-	6.25 µg/mL
O=c1[nH]c(=O)n([C@H]2C[C@H](O)[C@@H](CO)O2)cc1C1CCC1	-	E6SM	-	-	EC50	Vesicular stomatitis virus	cytopathic effect	>1500 µM
CC1CCC(C(=O)N(c2cc(C#CC(C)(C)C)sc2C(=O)O)C2CCC(O)CC2)CC1	Con1	1C	M423T	-	fold resistance	Hepatitis C virus	luciferase	80
CC(C)(C)c1cccc2c1OP(=O)(OC[C@H]1O[C@@H](n3cc(/C=C/Br)c(=O)[nH]c3=O)C[C@@H]1O)OC2	OKA	HELF	-	-	EC50	Varicella zoster virus	plaque count	0.011 µg/mL
Nc1ncnc2c1ncn2CCOCP(=O)(O)O	-	P3HR-1	-	10 µM	inhibition	Epstein-Barr virus	-	5%
CC1(C)CC[C@]2(C(=O)O)CC[C@]3(C)C(=CC[C@@H]4[C@@]5(C)CC[C@H](O)C(C)(C)[C@@H]5CC[C@]43C)[C@@H]2C1	TYPE 3	BCC-1/KMC	-	-	EC50	Adenovirus	cytopathic effect	>40 µg/mL
CC[C@@]1(OC(=O)CN)C(=O)OCc2c1cc1n(c2=O)Cc2cc3cc(O)ccc3nc2-1	Mutant ΔERG6	-	-	-	MIC	Saccharomyces cerevisiae	-	>100 µg/mL
C[N+](C)(C)CCn1c(Cn2nnc3ccccc32)nc2cc([N+](=O)[O-])ccc21	LONG	HEP-2	-	4 µg/mL	inhibition	Respiratory syncytial virus	-	100%
CC(=O)Nc1cc2c(O)c(N=Nc3ccc(S(N)(=O)=O)cc3)c(S(=O)(=O)O)cc2cc1S(=O)(=O)O	-	VERO	-	-	EC50	Tacaribe virus	cytopathic effect	>100 µM
CCCCCCCCCN1C[C@H](O)[C@@H](O)[C@H](O)[C@H]1CO	-	MDBK	-	-	EC50	Bovine viral diarrhea virus	plaque count	105 µM
O=c1[nH]c(=O)n([C@H]2C[C@H](O)[C@@H](CO)S2)cc1C1CC1	-	E6SM	-	-	EC50	Vesicular stomatitis virus	cytopathic effect	>1500 µM
CCc1c2c(nc3ccc(O)cc13)-c1cc3c(c(=O)n1C2)COC(=O)[C@@]3(CC)OC(=O)CN	Mutant ΔERG6 ΔTOP1	-	-	-	MIC	Saccharomyces cerevisiae	-	>100 µg/mL
Nc1ccn(C[C@H]2COP(=O)(O)CO2)c(=O)n1	-	P3HR-1	-	-	EC50	Epstein-Barr virus	hybridisation	0.3 µg/mL
O=c1ccn([C@H]2C[C@H](O)[C@@H](CO)S2)c(=O)[nH]1	-	E6SM	-	-	EC50	Vesicular stomatitis virus	cytopathic effect	>2000 µM
Nc1ncnc2c1ncn2CCOCP(=O)(O)O	-	P3HR-1	-	-	EC50	Epstein-Barr virus	hybridisation	3.3 µg/mL
CC[C@@]1(OC(=O)CN)C(=O)OCc2c1cc1n(c2=O)Cc2c-1nc1cc3c(cc1c2CCl)OCO3	Mutant ΔERG6	-	-	-	MIC	Saccharomyces cerevisiae	-	3.12 µg/mL
COc1cc(O)c2c(=O)c(O)c(-c3ccc(O)c(O)c3)oc2c1	Clinical isolates	-	-	-	EC90	Plasmodium falciparum	-	133 µM
O=c1[nH]cnc2c([C@@H]3O[C@H](CO)[C@@H](O)[C@H]3O)c[nH]c12	-	-	-	1 µg/mL	inhibition	Pneumocystis carinii	-	25%
CC(C)[C@H](NC(=O)[C@H](CCCN=C(N)N)NC(=O)N[C@@H](Cc1ccccc1)C(=O)O)C(=O)N[C@H](C=O)CCCN=C(N)N	-	-	-	10 µg/mL	inhibition	Cryptosporidium parvum	-	46.89%
CCCCCCCCCCCC(=O)C1=C(O)C(CC=C(C)C)(CC=C(C)C)C(=O)C(CC=C(C)C)(CC=C(C)C)C1=O	Vancomycin-resistant	-	-	-	MIC	Enterococcus faecalis	-	125 µg/mL
NC(=O)c1ncn([C@@H]2O[C@H](CO)[C@@H](O)[C@H]2O)n1	-	MDBK	-	-	EC50	Bovine viral diarrhea virus	cytopathic effect	3.8 µM
Cc1cn([C@@H]2C[C@@H](O)[C@H](CO)O2)c(=O)[nH]c1=O	-	PDH	-	-	EC50	Duck hepatitis B virus	-	0.054 µM
CO/N=C1\CN(c2nc3c(cc2F)c(=O)c(C(=O)O)cn3C2CC2)CC1CN	HI43	-	-	-	MIC	Haemophilus influenzae	-	0.125 µg/mL
O=c1cc(-c2ccccc2)oc2cc(O)c(O)c(O)c12	TYPE 3	BCC-1/KMC	-	-	EC50	Adenovirus	cytopathic effect	>20 µg/mL
Nc1ncnc2c1ncn2[C@@H]1C=C(CO)[C@@H](O)[C@H]1O	TYPE 1	-	-	-	MIC	Reovirus	-	0.7 µg/mL
Cc1cn([C@H]2C[C@H](O)[C@@H](CO)S2)c(=O)[nH]c1=O	-	E6SM	-	-	EC50	Vesicular stomatitis virus	cytopathic effect	>2000 µM
CC[C@@]1(O)C(=O)OCc2c1cc1n(c2=O)Cc2cc3c(CN(C)C)c(O)ccc3nc2-1	JHY6-1C	-	-	-	MIC	Saccharomyces cerevisiae	-	>1000 µg/mL
c1ccc2c(c1)nnn2Cc1nc2ccccc2n1CC1CCCN2CCCCC12	LONG	HEP-2	-	4 µg/mL	inhibition	Respiratory syncytial virus	-	100%
CCCC(=O)O[C@H]1CN2CC[C@H](O)[C@@H]2[C@@H](O)[C@@H]1O	-	MDBK	-	-	EC50	Bovine viral diarrhea virus	plaque count	16.25 µM
COc1cc(Cc2cnc(N)nc2N)cc(OC)c1OCCCNc1ccc(S(=O)(=O)c2ccc(N)cc2)cc1	Isolate 842	-	-	-	MBC	Mycobacterium ulcerans	-	4 µg/mL
CCCCCCCCCC(=O)C1=C(O)C(C)(C)C(=O)C(C)(C)C1=O	Vancomycin-resistant	-	-	-	MIC	Enterococcus faecalis	-	4 µg/mL
CC(C)N1CCN(c2c(F)cc3c(=O)c(C(=O)O)cn(C4CC4)c3c2F)CC1	KD1987 (GYRA A91V)	-	-	-	MIC99	Mycobacterium smegmatis	-	2.3 µg/mL
CC(=O)O/N=C1/C[C@H](n2cc(C)c(=O)[nH]c2=O)O[C@@H]1CO	-	P3HR-1	-	-	EC50	Epstein-Barr virus	hybridisation	0.5 µg/mL
CC(C)OC(=O)[C@H](C)N[P@](=O)(OC[C@H]1O[C@@](C#N)(c2ccc3c(N)ncnn23)[C@](C)(O)[C@@H]1OC(=O)C(C)C)Oc1ccccc1	1b Con1	1C	Y93H	-	fold resistance	Hepatitis C virus	luciferase	0.33
CCCN1CCN(c2cc(=O)c3nc4c(oc3c2)c2c(=O)c3c(O)c(C)c5c(c34)=C(O)[C@@](C)(O/C=C/[C@H](OC)[C@@H](C)[C@@H](OC(C)=O)[C@H](C)[C@H](O)[C@H](C)[C@@H](O)[C@@H](C)/C=C/C=C(/C)C(=O)N2)O5)CC1	20 strains (methicillin-resistant)	-	-	-	MIC50	Staphylococcus aureus	-	0.0039 µg/mL
C[C@@H]1[C@H](O)[C@@H](C)/C=C/C=C/CC/C=C/C=C/C=C/C=C/C(O[C@H]2O[C@H](C)[C@@H](O)[C@H](N)[C@@H]2O)CC2O[C@](O)(CC(O)C(O)CCC(O)CC(O)CC(O)CC(=O)O[C@H]1C)CC(O)C2C(=O)O	MD 37	-	-	-	MIC100	Candida albicans	broth dilution	64 µg/mL
CC(C)=CCN1Cc2cc(Cl)cc3[nH]c(=S)n(c23)C[C@@H]1C	-	MT-4	RT-L74V L100I	-	EC95	HIV-1	-	>3 µM
[Al]#[P]	-	-	-	-	MIC	Aspergillus terreus	agar	3 µg/mL
CC1OP(=O)(OC[C@H]2O[C@@H](n3cc(/C=C/Br)c(=O)[nH]c3=O)C[C@@H]2O)Oc2cccc(Cl)c21	OKA	HELF	-	-	EC50	Varicella zoster virus	plaque count	0.02 µg/mL
C#Cc1c(C(N)=O)ncn1[C@@H]1O[C@H](CO)[C@@H](O)[C@H]1O	Toyoshima	VERO	-	-	EC50	Measles virus	plaque count	0.9 µg/mL
CN1CCC[C@@]1(N)Cn1c(Cn2nnc3ccccc32)nc2ccccc21	LONG	HEP-2	-	4 µg/mL	inhibition	Respiratory syncytial virus	-	53%
Nc1nc(N)c2ncn(CCOCP(=O)(O)O)c2n1	-	-	-	-	MIC	Duck hepatitis B virus	-	1 µg/mL
Nc1nc(NC(c2ccccc2)c2ccccc2)c2ncn(CCOCP(=O)(O)O)c2n1	-	P3HR-1	-	-	EC50	Epstein-Barr virus	hybridisation	1.3 µg/mL
O=C1C(=O)c2ccccc2C(O)=C1C1CCC(c2ccc(Cl)cc2)CC1	-	HepG2	-	-	EC50	Plasmodium berghei	microscopy / fluorescence	0.003 µM
COc1c(N2CCN(C(C)C)CC2)c(F)cc2c(=O)c(C(=O)O)cn(C3CC3)c12	KD1991 (GYRA D95Y)	-	-	-	MIC99	Mycobacterium smegmatis	-	2.4 µg/mL

Zone: diameter of growth inhibition. Percent inhibition refers to the dose given; in toxicity tests it is the harm to the cells. Blank or dashed fields: not listed here. A number after MIC or MFC names an inhibition level or a share of isolates. Rows are shuffled and stem from different studies. Fold resistance: result on the changed form divided by that on wild type.